A mixed list of measured activities; the numbers were collected in NIAID ChemDB.

Common to all: growth or infection tests; agent: HIV-1

Conditions beyond the fields shown may differ between rows.

structure	read by	measure	cells	setting	mutations	strain	result
CC(C)(C)NC(=O)[C@@H]1C[C@@H]2CCCC[C@@H]2CN1C[C@@H](O)[C@H](Cc1ccccc1)NC(=O)[C@H](CC(N)=O)NC(=O)c1ccc2ccccc2n1	p24	EC50	PBMC			BAL R5	0.008 µM
Nc1nc(=O)n([C@@H]2CO[C@H](CO)S2)cc1F	RT activity	EC50	CBMC		RT-M184V	4205(RT-M184V)	>100 µM
CC(C)=CCOc1cc(NC(=S)c2ccsc2C)ccc1Cl	syncytia	EC50	CEM		RT-E138K	IIIB	0.01 ± 0.007 µM
O=C(O[C@@H]1Cc2c(O)cc(O)cc2O[C@@H]1c1ccc(O)c(O)c1)c1ccccc1	MTT	EC50	C8166			IIIB	17.01 µg/mL
CCN1c2ncccc2-c2ncc(C)n2-c2ccc(=O)[nH]c21	p24	EC50	H9	7 d		IIIB	<0.11 µM
CC(C)(C)NC(=O)[C@@H]1C[C@@H]2CCCC[C@@H]2CN1C[C@@H](O)[C@H](Cc1ccccc1)NC(=O)[C@H](CC(N)=O)NC(=O)c1ccc2ccccc2n1	plaque count / virus yield	EC50	MT-2			RF	<0.004 µg/mL
Cc1cn([C@H]2C[C@H](N=[N+]=[N-])[C@@H](CO)O2)c(=O)[nH]c1=O	RT activity	EC50	CEM + CEM-SS			LAI	0.006 µM
Nc1nc(=O)n([C@H]2CO[C@@H](CO)S2)cc1F	RT activity	EC50	MT-4		RT-D67G	HxB2D(RT-D67G)	25 µM
C[C@H](Cn1cnc2c(N)ncnc21)OCP(=O)(O)O	cytopathic effect / MTT	EC50	MT-4		RD 22-RTwt		0.56 µM
Cc1ccc(-c2ccc3c(c2)C=C(C(=O)Nc2ccc(C[N+](C)(C)C4CCOCC4)cc2)CCC3)cc1	p24	EC50	PBMC			JR-FL R5	0.006 µM
Cc1cc2c(C(C)C)c(O)c(O)c(C=N)c2c(O)c1-c1c(C)cc2c(C(C)C)c(O)c(O)c(C=N)c2c1O		EC50	PBMC			LAV	3.4 µM
Cc1ccnc2c1NC(=O)c1cccnc1N2C1CC1	syncytia	EC50	CEM			IIIB	0.033 ± 0.011 µM
O=C(c1ccccc1)c1c(O)cc(O)c([C@@H]2O[C@H](CO)[C@@H](O)[C@H](O)[C@H]2O)c1O	MTT	EC50	C8166			IIIB	131.7 µg/mL
CCN1c2ncccc2-c2nccn2-c2ccc(OC)nc21	p24	EC50	H9	7 d		IIIB	<0.008 µM
CCCC(=O)c1c(O)c(CC2(C)C(=O)C(C(=O)C(C)CC)=C(O)C(C)=C2O)c(O)c(C)c1OC		EC50	PBMC			LAV	3.92 µM
CC(C)[C@H](NC(=O)c1ccc2ccccc2n1)C(=O)N[C@@H](Cc1ccccc1)[C@H](O)CN1CC[C@@H](OCc2ccncc2)C[C@H]1C(=O)NC(C)(C)C	p24	EC50	C8166			Nevirapine-resistant	0.0014 µM
Cc1cn([C@H]2C[C@H](N=[N+]=[N-])[C@@H](CO)O2)c(=O)[nH]c1=O	p24	EC50	PBMC			IIIB	0.0099 µM
O=c1[nH]cnc2c1ncn2[C@H]1CC[C@@H](CO)O1	RT activity	EC50	CBMC			HXB2D	1.9 µM
C=C(C#N)c1cc(C)c(Oc2ccnc(Nc3ccc(CN4CCN(S(C)(=O)=O)CC4)cc3)n2)c(C)c1	MTT	EC50	MT-4		L100I	IIIB	0.01 µM
CCN1c2ncccc2-c2ncc(C)n2-c2ccc(N(C)C)nc21	p24	EC50	H9	7 d		IIIB	<0.25 µM
Cc1cn([C@H]2C[C@H](N=[N+]=[N-])[C@@H](CO)O2)c(=O)[nH]c1=O	RT activity	EC50	CBMC			1075 (AZT-resistant)	0.25 µM
CCN1c2ncccc2-c2ncc(C)n2-c2cccnc21	p24	EC50	H9	7 d		IIIB	<0.018 µM
CC(C)CN(C[C@@H](O)[C@H](Cc1ccccc1)NC(=O)[C@H](CC(N)=O)NC(=O)c1ccc2ccccc2n1)C(=O)NC(C)(C)C	RT activity	EC50	PBMC			LAV	<0.14 µM
CC(C)=CCN1Cc2cc(Cl)cc3[nH]c(=S)n(c23)C[C@@H]1C		EC50	MT-4		RT-L74V A98G		<3 µM
Cc1c(-c2c(C)c(=O)c3c(C(C)C)c(=O)c(=O)c(C=O)c-3c2=O)c(O)c2c(C=O)c(O)c(O)c(C(C)C)c2c1O		EC50	PBMC			LAV	0.86 µM
Cc1cn([C@H]2C[C@H](N=[N+]=[N-])[C@@H](COCP(=O)(O)O)O2)c(=O)[nH]c1=O		EC50	MT-4				~1 µM
NC(=O)c1[nH]c2ccc(Cl)cc2c1S(=O)(=O)c1ccccc1	p24	EC50	Macrophage			IIIB Ba-L	2 µM
CC[C@H](C)[C@H](NC(=O)Cc1ccccn1)C(=O)N[C@@H](Cc1ccccc1)[C@@H](O)[C@H](O)[C@H](Cc1ccccc1)NC(=O)[C@@H](NC(=O)Cc1ccccn1)[C@@H](C)CC	plaque count / virus yield	EC50	MT-2			RF	0.9 µg/mL
Cn1c(O)c(C2=c3ccccc3=NC2=O)c2ccccc21		EC50	PBMC			LAV	>100 µM
Cc1cn([C@H]2C[C@H](N=[N+]=[N-])[C@@H](COP(=O)(O)OC[C@@H]3O[C@H](n4ccc(N)nc4=O)CS3)O2)c(=O)[nH]c1=O	RT activity	EC50	MT-4			IIIB	0.075 µM
CC(C)Nc1cccnc1N1CCN(C(=O)c2cc3cc(NS(C)(=O)=O)ccc3[nH]2)CC1	cytopathic effect	EC50	CEM		RT-E138K	IIIB	0.016 µg/mL
O=c1[nH]cnc2c1ncn2[C@H]1CC[C@@H](CO)O1	RT activity	EC50	MT-4			Clinical isolate 263	3.6 µM
CC(C)CN(C[C@@H](O)[C@H](Cc1ccccc1)NC(=O)O[C@H]1CCOC1)S(=O)(=O)c1ccc(N)cc1	RT activity	EC90	CEM				0.04 µg/mL
CC(C)Nc1cccnc1N1CCN(C(=O)c2cc3cc(N=CN(C)C)ccc3[nH]2)CC1		EC50	MT-2			LAV	0.22 µM
Cc1cn([C@H]2C[C@H](N=[N+]=[N-])[C@@H](CO)O2)c(=O)[nH]c1=O	cytopathic effect / MTT	EC50	MT-4			IIIB	0.0042 µg/mL
CC(C)=CCN1Cc2cc(Cl)cc3[nH]c(=S)n(c23)C[C@@H]1C	cytopathic effect	EC50	CEM		RT-E138K	IIIB	0.3 µg/mL
CC(=O)N[C@H](C(=O)N[C@@H](Cc1ccc(OCc2ccccc2)cc1)[C@@H](O)[C@H](O)[C@H](Cc1ccc(OCc2ccccc2)cc1)NC(=O)[C@@H](NC(C)=O)C(C)C)C(C)C	plaque count / virus yield	EC50	MT-2			RF	<0.3 µg/mL
CCOC(=O)CCNP(=O)(OC[C@@H]1O[C@H](n2cc(C)c(=O)[nH]c2=O)C[C@H]1N=[N+]=[N-])OC[C@H]1O[C@@H](n2cc(C)c(=O)[nH]c2=O)C[C@@H]1N=[N+]=[N-]	RT activity	EC50	CEM + CEM-SS			LAI	0.016 µM

Again, the opening 4 rows:

structure | read by | measure | cells | setting | mutations | strain | result
CC(C)(C)NC(=O)[C@@H]1C[C@@H]2CCCC[C@@H]2CN1C[C@@H](O)[C@H](Cc1ccccc1)NC(=O)[C@H](CC(N)=O)NC(=O)c1ccc2ccccc2n1 | p24 | EC50 | PBMC |  |  | BAL R5 | 0.008 µM
Nc1nc(=O)n([C@@H]2CO[C@H](CO)S2)cc1F | RT activity | EC50 | CBMC |  | RT-M184V | 4205(RT-M184V) | >100 µM
CC(C)=CCOc1cc(NC(=S)c2ccsc2C)ccc1Cl | syncytia | EC50 | CEM |  | RT-E138K | IIIB | 0.01 ± 0.007 µM
O=C(O[C@@H]1Cc2c(O)cc(O)cc2O[C@@H]1c1ccc(O)c(O)c1)c1ccccc1 | MTT | EC50 | C8166 |  |  | IIIB | 17.01 µg/mL

ECn is the concentration giving n% inhibition of infection, replication or growth. An empty or dashed field is not shown.